Source: US11168092B2 (priority 2019, dated 2021)
pIC50: −log10 of the molar value.

Legend:
[1] = test system: lung cancer cells (A549); assay: SRB bioassay, cytotoxicity on lung cancer cells; type: cell-based; design: unit not given here; conditions: 72 hours
[2] = test system: skin cancer cells (SK-MEL-2); assay: SRB bioassay, cytotoxicity on skin cancer cells; type: cell-based; design: unit not given here; conditions: 72 hours
[3] = test system: colorectal cancer cells (HCT15); assay: SRB bioassay, cytotoxicity on colorectal cancer cells; type: cell-based; design: Anticancer activity (value at given concentration): unit not given here; conditions: for Anticancer activity (value at given concentration): 72 hours
[4] = test system: ovarian cancer cells (SK-OV-3); assay: SRB bioassay, cytotoxicity on ovarian cancer cells; type: cell-based; conditions: read-out: IC50 value
[5] = test system: lung cancer cells (A549), ovarian cancer cells (SK-OV-3), skin cancer cells (SK-MEL-2), and colorectal cancer cells (HCT15); conditions: read-out: IC50 value, over lung
[6] = A549, concentration 0.0001 (mM)
[7] = SK-MEL-2, concentration 0.0001 (mM)
[8] = SK-MEL-2, concentration 0.001 (mM)
[9] = SK-MEL-2, concentration 0.01 (mM)
[10] = SK-MEL-2, concentration 0.1 (mM)
[11] = SK-MEL-2, concentration 1.0 (mM)
[12] = SK-MEL-2, concentration 10.0 (mM)
[13] = HCT15, concentration 0.0001 (mM)
[14] = HCT15, concentration 0.001 (mM)

CC1=C[C@H]2O[C@@H]3C[C@H]4OC(=O)/C=C\C=C\[C@]5([C@H](C)O)OCC/C(=C\C(=O)OC[C@@]2(CC1)[C@]4(C)[C@]31CO1)[C@H]5O
Anticancer activity (value at given concentration) [1, 6]: 98.46
Anticancer activity (value at given concentration) ([1]; A549, concentration 0.001 (mM)): 98.27
Anticancer activity (value at given concentration) ([1]; A549, concentration 0.01 (mM)): 97.65
Anticancer activity (value at given concentration) ([1]; A549, concentration 0.1 (mM)): 99.81
Anticancer activity (value at given concentration) ([1]; A549, concentration 1.0 (mM)): 99.22
Anticancer activity (value at given concentration) ([1]; A549, concentration 10.0 (mM)): 10.35

COC(=O)/C=C/C=C/[C@@H](OCC/C(C)=C/C(=O)OC[C@]12CCC(C)=C[C@H]1O[C@@H]1C[C@@H](O)[C@@]2(C)[C@]12CO2)[C@@H](C)O
Anticancer activity (value at given concentration) [2, 7]: 94.45
Anticancer activity (value at given concentration) [2, 8]: 93.83
Anticancer activity (value at given concentration) [2, 9]: 99.46
Anticancer activity (value at given concentration) [2, 10]: 103.86
Anticancer activity (value at given concentration) [2, 11]: 102.59
Anticancer activity (value at given concentration) [2, 12]: 97.30
Anticancer activity (value at given concentration) [1, 6]: 93.23
Anticancer activity (value at given concentration) ([1]; A549, concentration 0.001 (mM)): 97.98
Anticancer activity (value at given concentration) ([1]; A549, concentration 0.01 (mM)): 102.62
Anticancer activity (value at given concentration) ([1]; A549, concentration 0.1 (mM)): 102.22
Anticancer activity (value at given concentration) ([1]; A549, concentration 1.0 (mM)): 101.45
Anticancer activity (value at given concentration) ([1]; A549, concentration 10.0 (mM)): 98.84
Anticancer activity (value at given concentration) [3, 13]: 102.34
Anticancer activity (value at given concentration) [3, 14]: 105.63
Anticancer activity (value at given concentration) ([3]; HCT15, concentration 0.01 (mM)): 107.01
Anticancer activity (value at given concentration) ([3]; HCT15, concentration 0.1 (mM)): 105.29
Anticancer activity (value at given concentration) ([3]; HCT15, concentration 1.0 (mM)): 86.63
Anticancer activity (value at given concentration) ([3]; HCT15, concentration 10.0 (mM)): 86.27

CC1=C[C@H]2O[C@@H]3C[C@@H](OC(=O)/C=C\C=C\C4([C@H](C)O)OCC/C(=C\C(=O)O)[C@@H]4O)[C@](C)([C@@]2(CO)CC1)[C@]31CO1 (stereo partly drawn)
Anticancer activity (value at given concentration) [2, 7]: 99.03
Anticancer activity (value at given concentration) [2, 8]: 104.42
Anticancer activity (value at given concentration) [2, 9]: 97.76
Anticancer activity (value at given concentration) [2, 10]: 102.99
Anticancer activity (value at given concentration) [2, 11]: 101.04
Anticancer activity (value at given concentration) [2, 12]: 87.55
Anticancer activity (value at given concentration) [1, 6]: 95.36
Anticancer activity (value at given concentration) ([1]; A549, concentration 0.001 (mM)): 99.30
Anticancer activity (value at given concentration) ([1]; A549, concentration 0.01 (mM)): 94.81
Anticancer activity (value at given concentration) ([1]; A549, concentration 0.1 (mM)): 91.26
Anticancer activity (value at given concentration) ([1]; A549, concentration 1.0 (mM)): 100.21
Anticancer activity (value at given concentration) ([1]; A549, concentration 10.0 (mM)): 68.29
Anticancer activity (value at given concentration) [3, 13]: 101.22
Anticancer activity (value at given concentration) [3, 14]: 106.07
Anticancer activity (value at given concentration) ([3]; HCT15, concentration 0.01 (mM)): 105.35
Anticancer activity (value at given concentration) ([3]; HCT15, concentration 0.1 (mM)): 107.55
Anticancer activity (value at given concentration) ([3]; HCT15, concentration 1.0 (mM)): 106.20
Anticancer activity (value at given concentration) ([3]; HCT15, concentration 10.0 (mM)): 11.54
pIC50 ([3]; read-out: IC50 value, colorectal cancer): 5.43
pIC50 [4]: 5.34

(2Z,4E)-(2R,2′S,4R,5S,5aR,9aR)-5a-((((E)-5-hydroxy-3-methylpent-2-enoyl)oxy)methyl)-5,8-dimethyl-2,3,4,5,5a,6,7,9a-octahydrospiro[2,5-methanobenzo[b]oxepine-10,2′-oxiran]-4-yl-7-hydroxy-6-(2-(5-oxo-2,5-dihydrofuran-3-yl)ethoxy)octa-2,4-dienoate
pIC50 [5]: > 7.15
Anticancer activity (value at given concentration) [1, 6]: 91.20
Anticancer activity (value at given concentration) ([1]; A549, concentration 0.001 (mM)): 86.40
Anticancer activity (value at given concentration) ([1]; A549, concentration 0.01 (mM)): 49.33
Anticancer activity (value at given concentration) ([1]; A549, concentration 0.1 (mM)): −11.78
Anticancer activity (value at given concentration) ([1]; A549, concentration 1.0 (mM)): −32.54
Anticancer activity (value at given concentration) ([1]; A549, concentration 10.0 (mM)): −64.23

CC1=C[C@H]2O[C@@H]3C[C@@H](OC(=O)/C=C\C=C\C(OCCC4=CC(=O)OC4)C(C)O)[C@](C)([C@@]2(CO)CC1)[C@]31CO1 (stereo partly drawn)
Anticancer activity (value at given concentration) [2, 7]: 100.12
Anticancer activity (value at given concentration) [2, 8]: 106.18
Anticancer activity (value at given concentration) [2, 9]: 107.91
Anticancer activity (value at given concentration) [2, 10]: 101.40
Anticancer activity (value at given concentration) [2, 11]: 105.53
Anticancer activity (value at given concentration) [2, 12]: 106.64
Anticancer activity (value at given concentration) [1, 6]: 96.62
Anticancer activity (value at given concentration) ([1]; A549, concentration 0.001 (mM)): 101.48
Anticancer activity (value at given concentration) ([1]; A549, concentration 0.01 (mM)): 100.72
Anticancer activity (value at given concentration) ([1]; A549, concentration 0.1 (mM)): 108.40
Anticancer activity (value at given concentration) ([1]; A549, concentration 1.0 (mM)): 101.96
Anticancer activity (value at given concentration) ([1]; A549, concentration 10.0 (mM)): 103.02
Anticancer activity (value at given concentration) [3, 13]: 103.20
Anticancer activity (value at given concentration) [3, 14]: 103.56
Anticancer activity (value at given concentration) ([3]; HCT15, concentration 0.01 (mM)): 105.34
Anticancer activity (value at given concentration) ([3]; HCT15, concentration 0.1 (mM)): 105.40
Anticancer activity (value at given concentration) ([3]; HCT15, concentration 1.0 (mM)): 102.31
Anticancer activity (value at given concentration) ([3]; HCT15, concentration 10.0 (mM)): 83.30
